Measured values from several laboratories, pooled; numbers as filed in NIAID ChemDB.

Common to all: tests in culture; species: Mycobacterium avium; measure: MIC90

An empty or dashed field is not shown. MIC50, MIC90 and the like: level of inhibition, or share of isolates inhibited. Lines come from different laboratories, so protocols vary.

structure	strain or isolate	value
N/C(=N\NC(CC(=O)c1ccc(Cl)cc1)c1cccnc1)c1ccccn1	17 strains	160 µg/mL
C[C@H]1COc2c(N3CCN(C)CC3)c(F)cc3c(=O)c(C(=O)O)cn1c23	36 strains	6.25 µg/mL
CCCN1CCN(c2cc3c(cc2F)c(=O)c(C(=O)O)cn3C2CC2)CC1	-	8 µg/mL
O=C(NN=C1CCCCC1)c1ccncc1	101	0.08 µg/mL
Cc1cccc(C(=O)CC(N/N=C(\N)c2ccccn2)c2ccccn2)c1	17 strains	160 µg/mL
CC1COc2c(N3CCN(C)CC3)c(F)cc3c(=O)c(C(=O)O)cn1c23	18 strains	50 µg/mL
N/C(=N\NC(CC(=O)c1ccc(-c2ccccc2)cc1)c1ccncc1)c1ccccn1	17 strains	160 µg/mL
NCC[C@H](O)C(=O)N[C@@H]1C[C@H](N)[C@@H](O[C@H]2O[C@H](CN)[C@@H](O)[C@H](O)[C@H]2O)[C@H](O)[C@H]1O[C@H]1O[C@H](CO)[C@@H](O)[C@H](N)[C@H]1O	100 strains	6.75 µg/mL
COc1c(N2CCNC(C)C2)c(F)cc2c(=O)c(C(=O)O)cn(C3CC3)c12	36 strains	6.25 µg/mL
O=C(O)c1cn(C2CC2)c2c(Cl)c(N3C[C@@H]4CCCN[C@@H]4C3)c(F)cc2c1=O	51 strains	0.5 µg/mL
N/C(=N\NC(CC(=O)c1ccc(Cl)c(Cl)c1)c1cccnc1)c1ccccn1	17 strains	80 µg/mL
CCCCCCCCCCCCC#Cc1cn([C@H]2C[C@H](O)[C@@H](CO)O2)c(=O)[nH]c1=O	-	>100 µg/mL
N/C(=N\NC(CC(=O)c1ccccc1)c1ccccn1)c1ccccn1	17 strains	32 µg/mL
C[C@@H]1CN(c2c(F)c(N)c3c(=O)c(C(=O)O)cn(C4CC4)c3c2F)C[C@H](C)N1	36 strains	1.56 µg/mL
N/C(=N\NC(CC(=O)c1ccc(Cl)cc1)c1ccccn1)c1ccccn1	17 strains	160 µg/mL
C[C@H]1CN(c2c(F)cc3c(=O)c(C(=O)O)cn(C4CC4)c3c2OC(F)F)CCN1	36 strains	3.13 µg/mL
CC1COc2c(N3CCN(C)CC3)c(F)cc3c(=O)c(C(=O)O)cn1c23	ATCC 15769	>100 µg/mL
C=CCS/C(N)=N\N=C\c1ccc(F)cc1	Clinical isolates	12.5 µg/mL
Cc1c(F)c(N2CCNC(C)C2)cc2c1c(=O)c(C(=O)O)cn2C1CC1	18 strains	25 µg/mL
NNC(=O)c1ccncc1	36 strains	100 µg/mL
CC1COc2c(C3(N)CC3)c(F)cc3c(=O)c(C(=O)O)cn1c23	18 strains	>100 µg/mL